# Measured values from patent US20090270312A1, “HIV-I GP41 FUSION PEPTIDES FOR IMMUNOMODULALTION” (priority 2005, published 2009).
# System: A2b cells
# Assay: Co-localization of peptides with membrane molecules (fluorescence confocal microscopy)
# Type: cell-based, rat
# Settings: for co-localization with the CD4 and TCR molecules: FITC-labeled antibodies to CD4 or TCR, FIG. 2B-C; for distribution on the membrane of activated T cells: fluorescently labeled peptide, FIG. 2A
substance,measurement,value
FP-Rho: FP conjugated to Rhodamine (AVGIGALFLGFLGAAGSTMGARSMTLTVQARQL),co-localization with the CD4 and TCR molecules,showed the same co-localization
same,distribution on the membrane of activated T cells,inserted themselves into a particular membrane domain
FP-NBD: FP conjugated to NBD (AVGIGALFLGFLGAAGSTMGARSMTLTVQARQL),co-localization with the CD4 and TCR molecules,showed the same co-localization
same,distribution on the membrane of activated T cells,inserted themselves into a particular membrane domain
